Pooled drug test results. Numbers come from NIAID ChemDB, via PubChem.

All rows: host protein counter-tests

ICn: concentration for n% inhibition. Neighbouring rows are from separate reports. Blank or dashed fields: not listed here. Inhibition is in % at the dose shown (toxicity tests: loss of growth or viability).

compound	read-out	organism	dose	read by	protein	result
O=C(Cn1c(-c2cscn2)nc2ccccc21)Nc1ccc2ccccc2c1	IC50	Human	-	fluorescence / absorbance	IMPDH2	≥40 µM
CC(C)(O/N=C(\C(=O)NCC(O)O)c1csc(N)n1)C(=O)O	IC50	Bos primigenius	-	-	DNA polymerase alpha	0.01 µM
Cc1ccnc2c1NC(=O)c1cccnc1N2C1CC1	IC50	Human	-	-	DNA polymerase beta	>24 µM
Nc1nc2c(ncn2[C@@H]2CNC[C@@H]2OCP(=O)(O)O)c(=O)[nH]1	Ki	Human	-	absorbance	Hypoxanthine-guanine phosphoribosyltransferase	29 µM
O=c1[nH]cnc2c1ncn2CCOCCP(=O)(O)O	Ki	Human	-	absorbance	Hypoxanthine-guanine phosphoribosyltransferase	3.6 µM
[N-]=[N+]=Nc1ccc(C(=O)CSc2nc3c(ncn3[C@H]3C[C@H](O)[C@@H](COP(=O)(O)OP(=O)(O)OP(=O)(O)O)O3)c3nccn23)cc1	Ki	Escherichia coli	-	radiometric	DNA polymerase I	92 µM
O=C1Oc2cc(O)c(O)cc2C2C(c3ccc(O)c(O)c3)=C3c4cc(O)c(O)cc4C=CN3C12	IC50	Molluscum contagiosum virus	-	-	Topoisomerase	0.23 µM
CN[C@H]1[C@@H](O[C@@H]2[C@@H](O[C@H]3[C@H](O)[C@@H](O)[C@H](N=C(N)N)[C@@H](O)[C@@H]3N=C(N)N)O[C@H](C)[C@@]2(O)C=O)O[C@H](CO)[C@@H](O)[C@@H]1O	IC50	-	-	-	Canavalia spp	13.23 µM
CCCCCCCc1c(C)[nH]c2cc(OC)ccc2c1=O	IC50	-	-	absorbance	HFF	>10 µM
O=c1[nH]cnc2c1ncn2[C@@H]1CNC[C@@H]1OCP(=O)(O)O	Ki	Human	-	absorbance	Hypoxanthine-guanine phosphoribosyltransferase	72 µM
CCCCCCCC/C=C/CCCCCCCCCCCCCC	IC50	Rattus norvegicus	-	-	DNA polymerase beta	5 µM
COc1c(-c2ccc3cc(NS(C)(=O)=O)ccc3c2)cc(-n2ccc(=O)[nH]c2=O)cc1C(C)(C)C	IC50	-	-	-	Bovine terminal deoxynucleotidyl transferase	>100 µM
O=c1[nH]cnc2c1ncn2CCOCCP(=O)(O)O	Ki	Human	-	absorbance	Hypoxanthine-guanine phosphoribosyltransferase	3.6 µM
N#CCN(CCn1cnc2c(=O)[nH]c(N)nc21)CCP(=O)(O)O	Ki	Human	-	absorbance	Hypoxanthine-guanine phosphoribosyltransferase	35 µM
Fc1ccc(N2CCCCC2)c(NC(=S)c2ccncc2)c1	inhibition	-	10 µM	kinase activity	DRAK1	-16%
O=c1[nH]cnc2c1ncn2[C@@H]1CNC[C@H]1OCP(=O)(O)O	Ki	Human	-	absorbance	Hypoxanthine-guanine phosphoribosyltransferase	5.7 µM

The first 2 rows once more:

O=C(Cn1c(-c2cscn2)nc2ccccc21)Nc1ccc2ccccc2c1 ; read-out: IC50 ; organism: Human ; read by: fluorescence / absorbance ; protein: IMPDH2 ; result: ≥40 µM
CC(C)(O/N=C(\C(=O)NCC(O)O)c1csc(N)n1)C(=O)O ; read-out: IC50 ; organism: Bos primigenius ; protein: DNA polymerase alpha ; result: 0.01 µM